# PubChem BioAssay AID624099 – ICCB-Longwood | 2012
# Test: 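Human genes that papillomavirus E2 requires to repress the HPV18 LCR promoter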 (primary screen)
# System: human C33A cervical carcinoma cells (HPV-negative) stably expressing BPV1 E2 and an HPV18 LCR luciferase reporter
# Reagent: siRNA pool against human genes, 40 nM
# Timing: 72 h
# Detection: 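Per-well luciferase luminescence, z-scored on each plate against the plate mean and SD with control wells left out, then averaged across three replicate plates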
# Direction: mean z-score and z-score: higher = stronger reporter signal, weaker E2 silencing
# Call rule: 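Mean z ≥ 2 together with z ≥ 2 in two or more of the three replicates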
# Here is a random part of about 21,000 reagents tested. In the full data, 497 (2.4%) are marked active. 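Higher z means weaker E2 silencing; only reporter increases were scored, and knock-downs that hurt cell survival may mask genuine repressor factors.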 A number with no mark means an inactive call.
mean z-score,"z-score, replicate A","z-score, replicate B","z-score, replicate C",target gene
-1.15,-0.97,-1.21,-1.26,GET1 (GeneID 7485)
-0.78,-0.65,-0.69,-1,NOMO1 (GeneID 23420)
-0.37,-0.55,-0.35,-0.2,BACE2 (GeneID 25825)
0.87,0.62,0.77,1.24,OBSL1 (GeneID 23363)
0.35,0.08,0.68,0.29,DYRK4 (GeneID 8798)
-1.35,-1.55,-1.23,-1.28,RACGAP1P1 (GeneID 83956)
-0.72,-0.56,-0.71,-0.89,SLC25A29 (GeneID 123096)
-0.27,-0.19,-0.75,0.14,GOLM1 (GeneID 51280)
0.03,0.03,0.15,-0.07,LOC388545 (retired record) (GeneID 388545)
0.17,0.54,0.01,-0.06,LHFPL6 (GeneID 10186)
-0.33,-0.1,-0.72,-0.17,LOC400688 (retired record) (GeneID 400688)
1.04,1.1,1.03,1,CTHRC1 (GeneID 115908)
0.74,0.9,0.51,0.81,PEAR1 (GeneID 375033)
0.41,0.41,0.41,0.42,STIM1 (GeneID 6786)
-0.12,0,-0.31,-0.06,TNFSF4 (GeneID 7292)

Continued; the last 3 above are carried over.
mean z-score,"z-score, replicate A","z-score, replicate B","z-score, replicate C",target gene
0.74,0.9,0.51,0.81,PEAR1 (GeneID 375033)
0.41,0.41,0.41,0.42,STIM1 (GeneID 6786)
-0.12,0,-0.31,-0.06,TNFSF4 (GeneID 7292)
1.14,1.01,1.06,1.36,MOXD1 (GeneID 26002)
-1.15,-0.88,-1.71,-0.86,HMGCS2 (GeneID 3158)
-0.14,0.21,-0.14,-0.5,DKK4 (GeneID 27121)
-1.08,-1.01,-1.17,-1.05,LOC402237 (retired record) (GeneID 402237)
-1,-0.61,-1.04,-1.34,PLEKHH3 (GeneID 79990)
-0.4,-0.24,-0.57,-0.4,CMBL (GeneID 134147)
0.56,0.43,0.78,0.47,ST20-AS1 (GeneID 283687)
0.33,0.43,0.68,-0.11,MAP9 (GeneID 79884)
